± gives the expanded uncertainty stated by the source.
Experiments:
[1] = refractive index (Na D-line) (dimensionless); conditions: 101.33 kPa, Liquid, Standard Abbe refractometry
[2] = 101.33 kPa, Liquid, Vibrating tube method

CCCCCC[n+]1ccccc1.O=S(=O)(F)[N-]S(=O)(=O)F [1-hexylpyridinium bis(fluorosulfonyl)amide]
Conditions	mass density, [2] [kg/m3]	refractive index, [1]
283.15 K	1313.7 ± 2	1.47548 ± 0.00064
288.15 K	1309.8 ± 2	1.47398 ± 0.00064
293.15 K	1305.8 ± 2	1.47248 ± 0.00064
298.15 K	1301.9 ± 2	1.47098 ± 0.00064
303.15 K	1297.9 ± 1.9	1.46948 ± 0.00064
308.15 K	1294 ± 1.9	1.46798 ± 0.00064
313.15 K	1290 ± 1.9	1.46651 ± 0.00064
318.15 K	1286.1 ± 1.9	1.46502 ± 0.00064
323.15 K	1282.1 ± 1.9	1.46355 ± 0.00064
328.15 K	1278.2 ± 1.9	1.4621 ± 0.00064
333.15 K	1274.2 ± 1.9	1.46063 ± 0.00064
338.15 K	1270.3 ± 1.9	1.4592 ± 0.00063
343.15 K	1266.4 ± 1.8	1.45776 ± 0.00064
348.15 K	1262.5 ± 1.8	1.45628 ± 0.00063
353.15 K	1258.6 ± 1.8	1.45489 ± 0.00063

CCC[N+]1(C)CCCC1.O=S(=O)(F)[N-]S(=O)(=O)F [1-methyl-1-propylpyrrolidinium bis(fluorosulfonyl)amide]
Conditions	mass density, [2] [kg/m3]	refractive index, [1]
283.15 K	1350.3 ± 2.1	1.44659 ± 0.00063
288.15 K	1346.2 ± 2.1	1.44522 ± 0.00063
293.15 K	1342.1 ± 2.1	1.44385 ± 0.00063
298.15 K	1338.1 ± 2.1	1.4425 ± 0.00063
303.15 K	1334.1 ± 2.1	1.44114 ± 0.00063
308.15 K	1330.1 ± 2.1	1.43977 ± 0.00063
313.15 K	1326.1 ± 2	1.43846 ± 0.00063
318.15 K	1322.2 ± 2	1.4371 ± 0.00063
323.15 K	1318.2 ± 2	1.43577 ± 0.00062
328.15 K	1314.3 ± 2	1.43446 ± 0.00062
333.15 K	1310.4 ± 2	1.43312 ± 0.00062
338.15 K	1306.6 ± 2	1.43182 ± 0.00062
343.15 K	1302.7 ± 2	1.43052 ± 0.00062
348.15 K	1298.9 ± 2	1.42919 ± 0.00062
353.15 K	1295.1 ± 1.9	1.42792 ± 0.00062

CCn1cc[n+](C)c1.O=S(=O)(F)[N-]S(=O)(=O)F [1-ethyl-3-methyl-1H-imidazolium bis(fluorosulfonyl)amide]
Conditions	mass density, [2] [kg/m3]	refractive index, [1]
283.15 K	1455.6 ± 2.5	1.45179 ± 0.00063
288.15 K	1450.9 ± 2.5	1.45035 ± 0.00063
293.15 K	1446.2 ± 2.4	1.44891 ± 0.00063
298.15 K	1441.4 ± 2.4	1.44747 ± 0.00063
303.15 K	1436.7 ± 2.4	1.44605 ± 0.00063
308.15 K	1432.1 ± 2.4	1.44462 ± 0.00063
313.15 K	1427.5 ± 2.4	1.4432 ± 0.00063
318.15 K	1422.9 ± 2.4	1.44179 ± 0.00063
323.15 K	1418.4 ± 2.4	1.44039 ± 0.00063
328.15 K	1413.9 ± 2.3	1.43899 ± 0.00063
333.15 K	1409.5 ± 2.3	1.43758 ± 0.00063
338.15 K	1405.1 ± 2.3	1.43619 ± 0.00063
343.15 K	1400.7 ± 2.3	1.43481 ± 0.00063
348.15 K	1396.3 ± 2.3	1.43342 ± 0.00063
353.15 K	1391.9 ± 2.3	1.43207 ± 0.00063

CC[n+]1ccccc1.O=S(=O)(F)[N-]S(=O)(=O)F [1-ethylpyridinium bis(fluorosulfonyl)amide]
Conditions	mass density, [2] [kg/m3]	refractive index, [1]
283.15 K	1471.9 ± 2.5	1.47477 ± 0.00064
288.15 K	1467.5 ± 2.5	1.47331 ± 0.00064
293.15 K	1463.1 ± 2.5	1.47185 ± 0.00064
298.15 K	1458.7 ± 2.5	1.47038 ± 0.00064
303.15 K	1454.3 ± 2.5	1.4689 ± 0.00064
308.15 K	1449.9 ± 2.5	1.46745 ± 0.00063
313.15 K	1445.5 ± 2.4	1.46602 ± 0.00063
318.15 K	1441.1 ± 2.4	1.46458 ± 0.00063
323.15 K	1436.7 ± 2.4	1.46315 ± 0.00063
328.15 K	1432.4 ± 2.4	1.46174 ± 0.00063
333.15 K	1428.1 ± 2.4	1.46032 ± 0.00063
338.15 K	1423.7 ± 2.4	1.45895 ± 0.00063
343.15 K	1419.4 ± 2.4	1.45754 ± 0.00063
348.15 K	1415.1 ± 2.3	1.4561 ± 0.00063
353.15 K	1410.8 ± 2.3	1.45476 ± 0.00063

CCCC[n+]1ccccc1.O=S(=O)(F)[N-]S(=O)(=O)F [1-butylpyridinium bis(fluorosulfonyl)amide]
Conditions	mass density, [2] [kg/m3]	refractive index, [1]
283.15 K	1381.9 ± 2.2	1.47569 ± 0.00064
288.15 K	1377.7 ± 2.2	1.4742 ± 0.00064
293.15 K	1373.6 ± 2.2	1.47271 ± 0.00064
298.15 K	1369.4 ± 2.2	1.47123 ± 0.00064
303.15 K	1365.2 ± 2.2	1.46975 ± 0.00064
308.15 K	1361.1 ± 2.2	1.46828 ± 0.00064
313.15 K	1356.9 ± 2.1	1.46683 ± 0.00064
318.15 K	1352.8 ± 2.1	1.46537 ± 0.00064
323.15 K	1348.6 ± 2.1	1.4639 ± 0.00064
328.15 K	1344.5 ± 2.1	1.46247 ± 0.00063
333.15 K	1340.4 ± 2.1	1.46103 ± 0.00063
338.15 K	1336.3 ± 2.1	1.45963 ± 0.00063
343.15 K	1332.2 ± 2.1	1.45823 ± 0.00063
348.15 K	1328.1 ± 2	1.45677 ± 0.00063
353.15 K	1324 ± 2	1.45536 ± 0.00063

CC[n+]1cccc(C)c1.O=S(=O)(F)[N-]S(=O)(=O)F [1-ethyl-3-methylpyridinium bis(fluorosulfonyl)amide]
Conditions	mass density, [2] [kg/m3]	refractive index, [1]
283.15 K	1420 ± 2.4	1.47636 ± 0.00064
288.15 K	1415.7 ± 2.3	1.47489 ± 0.00064
293.15 K	1411.4 ± 2.3	1.47341 ± 0.00064
298.15 K	1407.1 ± 2.3	1.47194 ± 0.00064
303.15 K	1402.9 ± 2.3	1.47048 ± 0.00064
308.15 K	1398.6 ± 2.3	1.46897 ± 0.00064
313.15 K	1394.3 ± 2.3	1.46754 ± 0.00063
318.15 K	1390.1 ± 2.3	1.46611 ± 0.00063
323.15 K	1385.8 ± 2.2	1.46466 ± 0.00064
328.15 K	1381.6 ± 2.2	1.46322 ± 0.00063
333.15 K	1377.4 ± 2.2	1.4618 ± 0.00063
338.15 K	1373.1 ± 2.2	1.46036 ± 0.00063
343.15 K	1368.9 ± 2.2	1.45899 ± 0.00063
348.15 K	1364.7 ± 2.2	1.45757 ± 0.00063
353.15 K	1360.5 ± 2.2	1.45612 ± 0.00064

Reference: the NIST ThermoML archive (doi:10.1021/je201289w)
